PubChem BioAssay AID1259414 | Drosophila RNAi Screening Center | 2018

Screen: 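Genome-wide screen for host control of endosymbiont load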 (primary screen)
Cell system: Drosophila JW18 cells infected with Wolbachia
Reagent: long dsRNA against Drosophila genes, 0.25 µg dsRNA per well of a 384-well plate
Timing: 5 days
Challenge: cells persistently infected with Wolbachia before knock-down; no added drug
Detection: 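Imaged fluorescence in situ signal for Wolbachia 23S rRNA per DAPI-counted host cell, given as a robust z-score within each plate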
Direction: Wolbachia per cell robust z: higher = more Wolbachia per host cell than the plate typical
Rule for the call: 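Active if absolute robust z reaches 1.5 in two or more of three replicates, leaving out multi- or no-target dsRNAs, genes unexpressed in JW18 and A1 wells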
In all, the deposit lists about 24,000 reagents; below is a random part of those with a known target gene and a result. Over the whole deposit, about 1,210 (5%) got an active call. 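Inactive calls also include excluded dsRNAs with several or no targets, genes unexpressed in JW18, and well A1, regardless of score.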 The numbers tell different reagents against one gene apart. A plus sign joins genes that one reagent is predicted to hit.

The first 2 records, to show the layout:
no.	Target gene	dsRNA no.	Wolbachia per cell robust z, rep 1	Wolbachia per cell robust z, rep 2	Wolbachia per cell robust z, rep 3	activity call
1	Spn27A (GeneID 45815)	1	0.772	0.393	0.104	inactive
2	pico (GeneID 33003)	1	-0.752	-0.798	-1.29	inactive

Results, from the start:
no.	Target gene	dsRNA no.	Wolbachia per cell robust z, rep 1	Wolbachia per cell robust z, rep 2	Wolbachia per cell robust z, rep 3	activity call
1	Spn27A (GeneID 45815)	1	0.772	0.393	0.104	inactive
2	pico (GeneID 33003)	1	-0.752	-0.798	-1.29	inactive
3	CG6972 (GeneID 42684)	1	0.47	-0.376	1.15	inactive
4	CG6972 (GeneID 42684)	2	-0.427	-0.266	-0.98	inactive
5	Sfp65A (GeneID 8674009)	1	-3.64	0.535	-0.904	inactive
6	Stat92E (GeneID 42428)	1	1.99	2.38	0.604	active
7	Stat92E (GeneID 42428)	2	1.26	0.0792	2.16	inactive
8	rogdi (GeneID 39917)	1	0.237	0.372	-0.0864	inactive
9	CG42507 + Trl	1	1.09	0.904	-2.4	inactive
10	Phlpp (GeneID 35178)	1	0.508	-0.934	-0.0533	inactive
11	Phlpp (GeneID 35178)	2	-0.665	-1.31	0.191	inactive
12	CG6195 (GeneID 42343)	1	0.721	0.571	-0.127	inactive
13	CG6195 (GeneID 42343)	2	-2.24	-0.978	0.0369	inactive
14	Ir94e (GeneID 42765)	1	0.712	-3.09	-2.14	inactive
15	DCTN2-p50 (GeneID 44086)	1	-0.403	0.584	0.906	inactive
16	stj (GeneID 36526)	1	0.142	1.14	0.871	inactive
17	CG33543 (GeneID 3346207)	1	-0.579	-0.885	-1.1	inactive
18	CG33543 (GeneID 3346207)	2	-0.864	0.424	0.276	inactive
19	mRpS18A (GeneID 326141)	1	-0.86	-0.538	-0.262	inactive
20	klu (GeneID 39228)	1	0.661	0.709	-1.43	inactive
21	klu (GeneID 39228)	2	-1.58	0.00257	-7.32	inactive
22	CG31909 (GeneID 319020)	1	0.561	0.654	0.121	inactive
23	CG31909 (GeneID 319020)	2	-0.493	-2.42	0.13	inactive
24	Gmap (GeneID 32483)	1	0.508	-6.59	-0.568	inactive
25	Gmap (GeneID 32483)	2	-0.161	0.215	-0.0398	inactive
26	Gmap (GeneID 32483)	3	0.715	-1.45	-5.08	inactive
27	Obp57b + Obp57c	1	-0.329	1.08	0.0121	inactive
28	Taf7 (GeneID 40934)	1	-0.578	-0.172	0.782	inactive
29	Taf7 (GeneID 40934)	2	-0.502	1.43	-0.11	inactive
30	CG42268 (GeneID 39145)	1	-0.816	0.539	-1.04	inactive
31	CG42268 (GeneID 39145)	2	0.693	-0.912	-1.56	inactive
32	CG42268 (GeneID 39145)	3	0.413	0.279	-0.172	inactive
33	CG42268 (GeneID 39145)	4	1.76	0.164	2.37	inactive
34	CG42268 (GeneID 39145)	5	1.2	0.123	-0.216	inactive
35	CG30110 (GeneID 246462)	1	-2.06	0.0613	0.945	inactive
36	CG42822 (GeneID 10178916)	1	-0.737	0.516	0.694	inactive
37	CG13016 (GeneID 36562)	1	-1.04	1.56	-0.115	inactive
38	CG15414 (GeneID 33570)	1	-0.192	-1.02	-0.329	inactive
39	CG15414 (GeneID 33570)	2	-0.892	0.862	0.537	inactive
40	CG15414 (GeneID 33570)	3	0.419	-1.5	0.86	inactive
41	Oda (GeneID 36307)	1	0.598	-0.067	0.471	inactive
42	Oda (GeneID 36307)	2	-0.39	1.36	-1.84	inactive
43	flw (GeneID 44289)	1	-3.9	-2.71	-5.15	inactive
44	flw (GeneID 44289)	2	1.08	1.03	-1.54	inactive
45	flw (GeneID 44289)	3	0.813	1.38	0.655	inactive
46	PRY (GeneID 26067055)	1	-4.54	-0.748	1.28	inactive
47	PRY (GeneID 26067055)	2	-0.183	-0.329	-0.202	inactive
48	PRY (GeneID 26067055)	3	-0.0217	-0.561	-1.99	inactive
49	CG5274 (GeneID 40257)	1	0.547	0.0455	1.12	inactive
50	CG32686 (GeneID 318153)	1	0.532	-0.941	0.0132	inactive
51	CG32686 (GeneID 318153)	2	-1.18	-1.85	-0.282	inactive
52	Pss (GeneID 40281)	1	-0.226	0.579	-0.455	inactive
53	Dhc36C (GeneID 35061)	1	0.865	0.875	0.854	inactive
54	spdi (GeneID 31004)	1	0.627	-0.372	-0.831	inactive
55	spdi (GeneID 31004)	2	0.727	0.463	0.531	inactive
56	rin (GeneID 47998)	1	0.412	0.117	-0.69	inactive
57	MFS18 (GeneID 33650)	1	0.543	-0.468	-1.23	inactive
58	CG31975 + ovm	1	0.207	0.243	-0.207	inactive
59	CG31975 + ovm	2	0.162	-0.885	-0.167	inactive
60	CG14445 (GeneID 31556)	1	-0.546	0.53	-0.3	inactive
61	CG14445 (GeneID 31556)	2	-0.607	-0.0475	-1.68	inactive
62	CG11836 (GeneID 43007)	1	0.543	0.118	0.00284	inactive
63	CG9570 (GeneID 33009)	1	0.868	0.0532	0.53	inactive
64	CG7849 (GeneID 35537)	1	1.39	0.465	0.219	inactive
65	CG7849 (GeneID 35537)	2	-0.332	0.405	0.257	inactive
66	ps (GeneID 44258)	1	-4.94	0.544	0.431	inactive
67	ps (GeneID 44258)	2	1.15	1.44	-0.0438	inactive
68	ps (GeneID 44258)	3	-1.42	-0.556	-4.06	inactive
69	ps (GeneID 44258)	4	-4.5	-2.92	-4.71	inactive
70	ps (GeneID 44258)	5	-0.829	-1.44	-0.558	inactive
